Anti-infective test results gathered from many reports (values: NIAID ChemDB through PubChem).

MIC50, MIC90 and the like: level of inhibition, or share of isolates inhibited. MIC bound: limit read from a one-dose screen. Blank or dashed fields: not listed here. ECn: concentration that inhibits the pathogen or its effect by n%. Inhibition is in % at the dose shown (toxicity tests: loss of growth or viability). Conditions beyond the fields shown may differ between rows. ICn is the concentration giving n% inhibition.

structure	target	tested at	kind	method	measure	cell line	strain or isolate	species	result
CCOP(=O)(O)C(Nc1ccc(N=Nc2ccccc2)cc1)c1cccc(C(Nc2ccc(N=Nc3ccccc3)cc2)P(=O)(O)OCC)c1	-	-	culture	resazurin	MIC bound	-	H37Rv	Mycobacterium tuberculosis	>6.25 µg/mL
C#CC[C@@H](C(=O)N[C@H](/C=C/C(=O)OCC)C[C@@H]1CCNC1=O)n1cccc(NC(=O)c2cc(C)on2)c1=O	-	-	culture	cytopathic effect / XTT	EC50	H1-HELA	Serotype 12	Rhinovirus	0.107 µM
O=c1cc(O)c2ccccc2[nH]1	-	-	culture	-	MIC	-	H37Rv	Mycobacterium tuberculosis	>100 µg/mL
c1ccc(N2CCN(c3cncc(-c4ccoc4)n3)CC2)cc1	UL97 kinase	-	target	-	IC50	-	-	Cytomegalovirus	<10 µM
Nc1ccc2cc([N+](=O)[O-])cc(S(=O)(=O)[O-])c2c1	-	10 µg/mL	culture	cytopathic effect	inhibition	Human amnion AV3 cells	-	Herpes simplex virus	0%
CCO/N=C/c1ccc(OCCC2CCN(c3ccc(C)nn3)CC2)cc1	-	-	culture	neutral red	EC50	KB	FO2-2317 (ICAM-1 receptor group 68)	Rhinovirus	0.038 µM
NC(=O)NCN1CCOCC1	-	-	culture	-	MIC	-	H37Rv	Mycobacterium tuberculosis	>100 µg/mL
COc1cc(O)c(C(=O)/C=C/c2cc(OC)c(OC)c(OC)c2)c(O)c1	-	-	culture	-	EC50	-	H37Rv	Mycobacterium tuberculosis	>12.5 µg/mL
O=[N+]([O-])c1ccccc1O	-	-	culture	-	MIC	-	H37Rv	Mycobacterium tuberculosis	>100 µg/mL
CCCCCCCCCCCNc1nnc(NC(=O)c2c(Cl)cccc2Cl)s1	Polymerase	-	target	-	IC50	-	-	Human cytomegalovirus	>25 µM
COc1ccc(N2CCN(c3cncc(-c4ccc(F)cc4F)n3)CC2)cc1OC	UL97 kinase	-	target	-	IC50	-	-	Cytomegalovirus	<100 µM
CN(C)CC(O)CO	-	-	culture	-	MIC	-	H37Rv	Mycobacterium tuberculosis	>100 µg/mL
CCCCCCCC/C=C/CCCCCCCC(=O)Nc1nnc(NCC2CCCO2)s1	Polymerase	-	target	-	IC50	-	-	Human cytomegalovirus	>25 µM
O=C1c2ccccc2C(=O)c2c(Nc3ccc(S(=O)(=O)N(CCO)CCO)cc3)ccc(O)c21	-	12.5 µg/mL	culture	BACTEC	inhibition	-	H37Rv	Mycobacterium tuberculosis	-12%
Clc1ccc(-c2cncc(N3CCN(c4ccccn4)CC3)n2)cc1	UL97 kinase	10 µM	target	-	inhibition	-	-	Cytomegalovirus	>15%
COC(=O)c1ccc2ccccc2c1O	-	-	culture	-	MIC	-	H37Rv	Mycobacterium tuberculosis	>100 µg/mL
CC(=O)Nc1ccc2oc3ccc(Cl)cc3c(=O)c2c1	-	12.5 µg/mL	culture	BACTEC	inhibition	-	H37Rv	Mycobacterium tuberculosis	16%
O=C(N[C@H](CO)[C@H](O)c1ccc([N+](=O)[O-])cc1)C(Cl)Cl	-	-	culture	-	MIC	-	H37Rv	Mycobacterium tuberculosis	12.5 µg/mL
COc1cc(OC)c2c(c1)OC(c1ccc(OC)c(I)c1)CC2=O	-	12.5 µg/mL	culture	-	inhibition	-	H37Rv	Mycobacterium tuberculosis	0%
CC(=O)C1(C)C(=O)N(c2ccc(Cl)cc2)C(=O)N1c1ccc(Cl)cc1	-	12.5 µg/mL	culture	BACTEC	inhibition	-	H37Rv	Mycobacterium tuberculosis	43%
CCOc1ccc(-c2cncc(N3CCN(c4ccc(C(C)=O)cc4)CC3)n2)cc1	UL97 kinase	10 µM	target	-	inhibition	-	-	Cytomegalovirus	>15%
O=C(Nc1nnc(NCCCCc2ccccc2)s1)c1cc(F)cc(F)c1	Polymerase	-	target	-	IC50	-	-	Human cytomegalovirus	>25 µM
COc1cc(C[C@H](C)[C@H](C)Cc2ccc(O)c(O)c2)ccc1O	-	-	culture	broth dilution	MIC80	-	CCC 131-2000	Candida lusitaniae	62.5 µg/mL
O=C(CC(=O)N1N=C(c2ccccc2)C(N=Nc2ccc(Cl)cc2)C1=O)Nc1ccccc1Cl	-	-	culture	BACTEC	MIC bound	-	H37Rv	Mycobacterium tuberculosis	>12.8 µg/mL
O=C1c2ccccc2OC(c2cccc(Br)c2)C1O	-	12.5 µg/mL	culture	-	inhibition	-	H37Rv	Mycobacterium tuberculosis	60%
CNC(=O)N(C)c1cc(N(C)C)nc(OC)n1	-	-	culture	BACTEC	MIC bound	-	H37Rv	Mycobacterium tuberculosis	>12.5 µg/mL
COc1ccc(/C=C/C(=O)c2ccc(Cl)cc2O)cc1	-	-	culture	-	EC50	-	H37Rv	Mycobacterium tuberculosis	<12.5 µg/mL
COc1cc(O)c(C(C)=O)cc1N.Cl	-	-	culture	-	MIC	-	H37Rv	Mycobacterium tuberculosis	>100 µg/mL
CCOc1ccc(NC(=O)C(N=Nc2ccc(S(=O)(=O)NC3ONC(C)C3C)cc2)C(C)=O)cc1	-	12.5 µg/mL	culture	BACTEC	inhibition	-	H37Rv	Mycobacterium tuberculosis	4%
CC(=O)Nc1ccc(S(N)(=O)=O)cc1	-	-	culture	-	MIC	-	H37Rv	Mycobacterium tuberculosis	>100 µg/mL
O=C(Cc1ccccc1)N/N=C(\c1nc2ccc([N+](=O)[O-])cc2[nH]c1=O)C(O)c1ccccc1Cl	-	6.25 µg/mL	culture	resazurin	inhibition	-	H37Rv	Mycobacterium tuberculosis	-87%
O=C(O)CC1(CC(=O)Nc2ccc(I)cc2)OCOC1=O	-	-	culture	-	MIC	-	H37Rv	Mycobacterium tuberculosis	>100 µg/mL
CCCCCCCC/C=C/CCCCCCCC(=O)Nc1nnc(NC2CCCCCC2)s1	Polymerase	-	target	-	IC50	-	-	Human cytomegalovirus	<25 µM
CSCCC(NC(=O)C(Cc1c[nH]c2ccccc12)NC(=O)OC(C)(C)C)C(=O)NN	-	-	culture	BACTEC	MIC bound	-	H37Rv	Mycobacterium tuberculosis	>12.5 µg/mL
COc1cc(NC(c2ccccc2)C(C(C)=O)N2CCOCC2)c2ncccc2c1	-	-	culture	-	MIC	-	H37Rv	Mycobacterium tuberculosis	>100 µg/mL
Nc1nc(N)c2cc(CNc3ccc(Cl)c(C(=O)NC(CC(=O)O)C(=O)O)c3)cnc2n1.O	-	-	culture	BACTEC	MIC bound	-	H37Rv	Mycobacterium tuberculosis	>12.5 µg/mL
O=[As](O)(O)c1ccc(O)c(O)c1	-	-	culture	-	MIC	-	H37Rv	Mycobacterium tuberculosis	>100 µg/mL
CCC(N)C(=O)NC(CO)C(=O)O	-	-	culture	BACTEC	MIC bound	-	H37Rv	Mycobacterium tuberculosis	>12.8 µg/mL
Cc1c(C)c2c(c(C)c1OC(=O)CCC(=O)O)CC[C@@](C)(CCC[C@H](C)CCC[C@H](C)CCCC(C)C)O2	-	-	culture	-	MIC	-	H37Rv	Mycobacterium tuberculosis	>100 µg/mL
CC(C)(C)c1ccc(-c2cncc(N3CCN(c4cccc(C(F)(F)F)c4)CC3)n2)cc1	UL97 kinase	10 µM	target	-	inhibition	-	-	Cytomegalovirus	>15%
O=c1ccc(I)c[nH]1	-	-	culture	-	MIC	-	H37Rv	Mycobacterium tuberculosis	>100 µg/mL
Cc1cc(=O)c2ccc(Cl)c(C)c2[nH]1	-	12.5 µg/mL	culture	BACTEC	inhibition	-	H37Rv	Mycobacterium tuberculosis	0%
Cc1cc(-c2ccc(N=Nc3c(N)c(S(=O)(=O)O)cc4cc(S(=O)(=O)O)ccc34)c(C)c2)ccc1N=Nc1c(N)ccc2cc(S(=O)(=O)O)ccc12	-	10 µg/mL	culture	cytopathic effect	inhibition	Human embryonic lung cells	TYPE 3	Adenovirus	0%
COc1ccc(C2CC(=O)c3ccc(I)cc3O2)cc1	-	12.5 µg/mL	culture	-	inhibition	-	H37Rv	Mycobacterium tuberculosis	0%
Nc1cccc(S(=O)(=O)O)c1	-	50 µg/mL	culture	cytopathic effect	inhibition	Human amnion AV3 cells	-	Herpes simplex virus	17%
Cc1nn(C(=O)c2ccncc2)c(C)c1N=Nc1ccc(S(=O)(=O)Nc2ncccn2)cc1	-	-	culture	BACTEC	MIC bound	-	H37Rv	Mycobacterium tuberculosis	>12.5 µg/mL
COC(=O)c1cc(Br)cc(Br)c1N	-	-	culture	-	MIC	-	H37Rv	Mycobacterium tuberculosis	>100 µg/mL
O=C(Nc1ccc2c(O)c(N=Nc3ccc(N=Nc4ccc(S(=O)(=O)O)cc4)cc3)c(S(=O)(=O)O)cc2c1)c1ccccc1	-	10 µg/mL	culture	cytopathic effect	inhibition	Human amnion AV3 cells	TYPE 3	Adenovirus	0%
COC(C)CCOc1cc(O)c2c(c1N)C(=O)c1ccccc1C2=O	-	12.5 µg/mL	culture	BACTEC	inhibition	-	H37Rv	Mycobacterium tuberculosis	6%
Fc1ccc(N2CCCCC2)c(NC(=S)c2ccncc2)c1	EphB4	10 µM	host protein	kinase activity	inhibition	-	-	-	11%
c1ccc(Oc2ccc(-c3cncc(N4CCN(c5ccccn5)CC4)n3)cc2)cc1	UL97 kinase	-	target	-	IC50	-	-	Cytomegalovirus	<100 µM
O=S(=O)(O)c1ccc(N=Nc2c(O)ccc3cc(S(=O)(=O)O)ccc23)cc1	-	50 µg/mL	culture	cytopathic effect	inhibition	Human conjunctiva cells	-	Herpes simplex virus	0%
O=C(/C=C/c1cccc(I)c1)c1ccccc1O	-	-	culture	-	EC50	-	-	Mycobacterium tuberculosis	<12.5 µg/mL
COc1c2c(c(OC)c3c1c(=O)c1ccccc1n3C)OCO2	-	-	culture	BACTEC	MIC bound	-	H37Rv	Mycobacterium tuberculosis	>128 µg/mL
O=C1C[C@@H](c2ccc(O)c(O)c2)Oc2c1c(O)cc(O)c2[C@H]1C(=O)c2c(O)cc(O)cc2O[C@@H]1c1ccc(O)cc1	-	-	culture	-	EC50	-	H37Rv	Mycobacterium tuberculosis	>12.5 µg/mL
O=[N+]([O-])c1cc(I)c(O)c(I)c1	-	-	culture	-	MIC	-	H37Rv	Mycobacterium tuberculosis	100 µg/mL
O=C(Nc1nnc(NCCc2ccccc2)s1)c1ccc2c(c1)C(=O)OC2=O	Polymerase	-	target	-	IC50	-	-	Human cytomegalovirus	<25 µM
Cc1ccc(S(=O)(=O)Nc2nn[nH]n2)cc1	-	-	culture	-	MIC	-	H37Rv	Mycobacterium tuberculosis	100 µg/mL
Cn1c(=O)c2c(nc(Cl)n2Cc2ccc([N+](=O)[O-])cc2)n(C)c1=O	-	6.25 µg/mL	culture	resazurin	inhibition	-	H37Rv	Mycobacterium tuberculosis	-5%
Cc1ccc(Nc2ccc(Nc3ccc(C)c(S(=O)(=O)[O-])c3)c3c2C(=O)c2c(O)ccc(O)c2C3=O)cc1S(=O)(=O)[O-].[Na+].[Na+]	-	-	culture	-	MIC	-	H37Rv	Mycobacterium tuberculosis	>100 µg/mL
NC(Cc1ccc(O)cc1)C(=O)N/N=C/c1ccccc1O	-	-	culture	BACTEC	MIC bound	-	H37Rv	Mycobacterium tuberculosis	>12.5 µg/mL
Oc1ccc(-c2ccc(O)c3ccccc23)c2ccccc12	-	-	culture	-	MIC	-	H37Rv	Mycobacterium tuberculosis	100 µg/mL
CC(=O)c1c(O)cc2c(c1O)C1CC(C)(CCC1=C(C)C)O2	-	-	culture	BACTEC	MIC bound	-	H37Rv	Mycobacterium tuberculosis	>12.5 µg/mL
O=S(=O)([O-])CCS(=O)(=O)[O-].[Na+].[Na+]	-	-	culture	-	MIC	-	H37Rv	Mycobacterium tuberculosis	100 µg/mL
O=C(Nc1nnc(NCCNc2ccccc2)s1)c1c(Cl)cccc1Cl	Polymerase	-	target	-	IC50	-	-	Human cytomegalovirus	>25 µM
O=C(NCCO)c1cccnc1	-	-	culture	BACTEC	MIC	-	H37Rv	Mycobacterium tuberculosis	≥12.5 µg/mL
Cl.N=C(N)c1ccc([N+](=O)[O-])cc1O	-	-	culture	-	MIC	-	H37Rv	Mycobacterium tuberculosis	>100 µg/mL
COc1cc(C=C(c2ccc(N(C)C)cc2)c2ccc(N(C)C)cc2)c2ccccc2c1OC	-	-	culture	resazurin	MIC bound	-	H37Rv	Mycobacterium tuberculosis	>6.25 µg/mL
Nc1ccc2cc(S(=O)(=O)O)cc(S(=O)(=O)O)c2c1	-	50 µg/mL	culture	cytopathic effect	inhibition	Human conjunctiva cells	-	Herpes simplex virus	0%

Repeating the first 4 entries:

structure,target,tested at,kind,method,measure,cell line,strain or isolate,species,result
CCOP(=O)(O)C(Nc1ccc(N=Nc2ccccc2)cc1)c1cccc(C(Nc2ccc(N=Nc3ccccc3)cc2)P(=O)(O)OCC)c1,-,-,culture,resazurin,MIC bound,-,H37Rv,Mycobacterium tuberculosis,>6.25 µg/mL
C#CC[C@@H](C(=O)N[C@H](/C=C/C(=O)OCC)C[C@@H]1CCNC1=O)n1cccc(NC(=O)c2cc(C)on2)c1=O,-,-,culture,cytopathic effect / XTT,EC50,H1-HELA,Serotype 12,Rhinovirus,0.107 µM
O=c1cc(O)c2ccccc2[nH]1,-,-,culture,-,MIC,-,H37Rv,Mycobacterium tuberculosis,>100 µg/mL
c1ccc(N2CCN(c3cncc(-c4ccoc4)n3)CC2)cc1,UL97 kinase,-,target,-,IC50,-,-,Cytomegalovirus,<10 µM